Data as given in article PMC6494957 (Frontiers in Microbiology, 2019).

System: all the cell lines tested (HaCaT, HEK 293, MDCK)
Protocol: Cells were maintained in Dulbecco’s modified Eagle’s medium (DMEM) with 10% fetal bovine serum (FBS) and 1% PenStrep (100 U/mL Penicillin and 100 μg/mL Streptomycin) at 37°C with 5% CO2. Cells were serially passaged at ∼80% confluence ∼ every 4 days. Assays were performed in duplicate in 96 well plates seeded with ∼25,000 cells per well. […] Briefly, the antimicrobials were prepared by performing a twofold serial dilution at 100× of tested concentration in DMSO. Subsequently, a 1 μl aliquot of each concentration was transferred to a sterile 96-well plate containing fresh DMEM with either 10% FBS. After mixing four times, the media aliquots with different concentrations of antimicrobial were transferred to each well of the 96-well plate seeded with cells, using wells containing 1–2% DMSO only as control. To determine the effect of FBS on the cytotoxicity of each compound, DMEM with 40% FBS containing different concentrations of antimicrobial was prepared as described above. After 24 h of exposure, WST-1 reagent (Cell Proliferation Assay reagent, Roche) at a concentration of 10% was added to each well. Absorbance at A450 nm on a Multiskan Ascent 354 Spectrophotometer (Labsystems) was measured after 1 h of incubation. The IC50 value was determined for each compound against each cell line via non-linear regression (three parameters) using GraphPad Prism v6 software.

Question: With `N=C(N/N=C/c1ccc(Cl)cc1)N/N=C/c1ccc(Cl)cc1` [ROB, robenidine] as the compound, how does the IC50/MIC ratio (robenidine in the presence of EDTA, Gram-negative pathogens) read?
Answer: Its IC50/MIC ratio is “sixfold”.

Question: And the IC50/MIC ratio (robenidine in the presence of EDTA, Gram-positive pathogens)?
Answer: The IC50/MIC ratio was “threefold”.

Question: What about the IC50/MIC ratio (robenidine in the presence of PMBN, Gram-negative pathogens) of the same compound?
Answer: Its IC50/MIC ratio is 2- to 24 fold.

Read-outs that look alike come from different tables or passages of the source.
